Test results reported in patent publication US20050191315A1 (priority 2002, published 2005).

Columns and labels:
toxin induced lethality = experiment: Toxin induced lethality, whole animal toxic shock model
proximal kidney cells = experiment: Toxin-induced apoptosis of proximal kidney cells in vitro
[1] = Antibody production after in vivo administration of SEB peptide; details: both IP and oral

For KKKVTAQELD, the toxin induced lethality (toxin induced lethality) was “reduced toxin induced lethality”, the “toxin-induced apoptosis of proximal kidney cells” value (proximal kidney cells) was “reduction in toxin-induced apoptosis of proximal kidney cells” and the antibody production [1] was “results in antibody production”.
